Reference: patent publication US7592419B2, “Macrocyclic inhibitors of hepatitis C virus NS3-serine protease” (Schering Corporation, priority 2003, dated 2009)
Structures were worked out from names or drawings and are uncertain.

Protein sequences, listed by entry. Tags and fused reporters are not part of them. Residues count along the entry.
UniProt P27958, 1027-1657 limits assumed: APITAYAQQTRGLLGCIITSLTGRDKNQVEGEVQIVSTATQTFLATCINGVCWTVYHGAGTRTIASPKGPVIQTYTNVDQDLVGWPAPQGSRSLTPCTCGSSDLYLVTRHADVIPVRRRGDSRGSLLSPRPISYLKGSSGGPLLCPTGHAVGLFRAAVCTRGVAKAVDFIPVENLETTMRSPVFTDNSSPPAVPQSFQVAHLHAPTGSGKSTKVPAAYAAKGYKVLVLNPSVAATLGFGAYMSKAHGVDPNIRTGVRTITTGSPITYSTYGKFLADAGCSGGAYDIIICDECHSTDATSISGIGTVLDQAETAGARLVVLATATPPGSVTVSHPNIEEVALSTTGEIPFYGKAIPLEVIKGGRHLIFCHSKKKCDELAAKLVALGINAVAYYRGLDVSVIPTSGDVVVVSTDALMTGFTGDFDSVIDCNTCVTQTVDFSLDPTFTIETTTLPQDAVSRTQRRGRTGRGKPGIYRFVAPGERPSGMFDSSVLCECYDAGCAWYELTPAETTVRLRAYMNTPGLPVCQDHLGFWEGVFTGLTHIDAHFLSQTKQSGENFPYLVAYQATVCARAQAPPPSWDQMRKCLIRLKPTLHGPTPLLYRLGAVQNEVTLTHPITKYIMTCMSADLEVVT
UniProt P27958, 1658-1711 partner limits assumed: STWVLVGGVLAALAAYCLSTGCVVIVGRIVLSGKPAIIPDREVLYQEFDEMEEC

These molecules were tested against Recombinant heterodimeric HCV NS3/NS4A protease (strain 1a) (Hepatitis C virus genotype 1a, UniProt P27958) (assay: Spectrophotometric assay for HCV protease inhibitory activity (chromogenic ester substrates)). Conditions: read-out: Activity Ki*, Table 3, 30° C., pH 6.5.
Description: Assay for HCV Protease Inhibitory Activity:
Spectrophotometric Assay: Spectrophotometric assays for the HCV serine protease was performed on the inventive compounds by following the procedure described by R. Zhang et al, Analytical Biochemistry, 270 (1999) 268-275, the disclosure of which is incorporated herein by reference. The assay based on the proteolysis of chromogenic ester substrates is suitable for the continuous monitoring of HCV NS3 protease activity. The substrates were derived from the P side of the NS5A-NS5B junction sequence (Ac-DTEDVVX(Nva), where X=A or P) whose C-terminal carboxyl groups were esterified with one of four different chromophoric alcohols (3- or 4-nitrophenol, 7-hydroxy-4-methyl-coumarin, or 4-phenylazophenol). Presented below are the synthesis, characterization and application of these novel spectrophotometric ester substrates to high throughput screening and detailed kinetic evaluation of HCV NS3 protease inhibitors. Materials and Methods:
Enzyme Preparation: Recombinant heterodimeric HCV NS3/NS4A protease (strain 1a) was prepared by using the procedures published previously (D. L. Sali et al, Biochemistry, 37 (1998) 3392-3401). Protein concentrations were determined by the Biorad dye method using recombinant HCV protease standards previously quantified by amino acid analysis. Prior to assay initiation, the enzyme storage buffer (50 mM sodium phosphate pH 8.0, 300 mM NaCl, 10% glycerol, 0.05% lauryl maltoside and 10 mM DTT) was exchanged for the assay buffer (25 mM MOPS pH 6.5, 300 mM NaCl, 10% glycerol, 0.05% lauryl maltoside, 5 μM EDTA and 5 μM DTT) utilizing a Biorad Bio-Spin P-6 prepacked column.
Protease Assay: HCV protease assays were performed at 30° C. using a 200 μl reaction mix in a 96-well microtiter plate. Assay buffer conditions (25 mM MOPS pH 6.5, 300 mM NaCl, 10% glycerol, 0.05% lauryl maltoside, 5 μM EDTA and 5 μM DTT) were optimized for the NS3/NS4A heterodimer (D. L. Sali et al, ibid.)). Typically, 150 μl mixtures of buffer, substrate and inhibitor were placed in wells (final concentration of DMSO≦4% v/v) and allowed to preincubate at 30° C. for approximately 3 minutes. Fifty μls of prewarmed protease (12 nM, 30° C.) in assay buffer, was then used to initiate the reaction (final volume 200 μl). The plates were monitored over the length of the assay (60 minutes) for change in absorbance at the appropriate wavelength (340 nm for 3-Np and HMC, 370 nm for PAP, and 400 nm for 4-Np) using a Spectromax Plus microtiter plate reader equipped with a monochrometer (acceptable results can be obtained with plate readers that utilize cutoff filters). Proteolytic cleavage of the ester linkage between the Nva and the chromophore was monitored at the appropriate wavelength against a no enzyme blank as a control for non-enzymatic hydrolysis. The evaluation of substrate kinetic parameters was performed over a 30-fold substrate concentration range (−6-200 μM). Initial velocities were determined using linear regression and kinetic constants were obtained by fitting the data to the Michaelis-Menten equation using non-linear regression analysis (Mac Curve Fit 1.1, K. Raner). Turnover numbers (kcat) were calculated assuming the enzyme was fully active.
Evaluation of Inhibitors and Inactivators: The inhibition constants (Ki*) for the competitive inhibitors Ac-D-(D-Gla)-L-1-(Cha)-C-OH (27), Ac-DTEDVVA(Nva)-OH and Ac-DTEDWP(Nva)-OH were determined experimentally at fixed concentrations of enzyme and substrate by plotting vo/vi vs. inhibitor concentration ([I]o) according to the rearranged Michaelis-Menten equation for competitive inhibition kinetics: vo/vi=1+[I]o/(Ki(1+[S]o/Km)), where vo is the uninhibited initial velocity, vi is the initial velocity in the presence of inhibitor at any given inhibitor concentration ([I]o) and [S]o is the substrate concentration used. The resulting data were fitted using linear regression and the resulting slope, 1/(Ki(1+[S]o/Km), was used to calculate the Ki* value. […]

| Compound | Ki [nM] |
| --- | --- |
| CN(C[C@@H](NC(=O)N[C@H]1CCCCCCCCC[C@@H](C(=O)C(N)=O)NC(=O)[C@@H]2[C@@H]3[C@H](CN2C1=O)C3(C)C)C(C)(C)C)S(=O)(=O)c1cccs1 | 2 |
| C=CCNC(=O)C(=O)[C@@H]1CCCCCCCCC[C@H](NC(=O)N[C@H](CN(C)S(C)(=O)=O)C(C)(C)C)C(=O)N2C[C@H]3[C@@H]([C@H]2C(=O)N1)C3(C)C | 3 |
| CN(C[C@@H](NC(=O)N[C@H]1CCCCCCCCC[C@@H](C(=O)C(N)=O)NC(=O)[C@@H]2[C@@H]3[C@H](CN2C1=O)C3(C)C)C(C)(C)C)S(C)(=O)=O | 3 |
| C=CCNC(=O)C(=O)[C@@H]1CCCCCCCCC[C@H](NC(=O)N[C@H](CN(C)S(=O)(=O)c2cccs2)C(C)(C)C)C(=O)N2C[C@H]3[C@@H]([C@H]2C(=O)N1)C3(C)C | 3 |

Same assay, conditions: read-out: Binding Activity (Ki rating), Table 1, 30° C., pH 6.5

| Compound | Ki [nM] |
| --- | --- |
| CN(C[C@@H](NC(=O)N[C@H]1CCCCCCCCC[C@@H](C(=O)C(N)=O)NC(=O)[C@@H]2[C@@H]3[C@H](CN2C1=O)C3(C)C)C(C)(C)C)S(=O)(=O)c1cccs1 | < 100 |
| C=CCNC(=O)C(=O)[C@@H]1CCCCCCCCC[C@H](NC(=O)N[C@H](CN(C)S(C)(=O)=O)C(C)(C)C)C(=O)N2C[C@H]3[C@@H]([C@H]2C(=O)N1)C3(C)C | < 100 |
| CN(C[C@@H](NC(=O)N[C@H]1CCCCCCCCC[C@@H](C(=O)C(N)=O)NC(=O)[C@@H]2[C@@H]3[C@H](CN2C1=O)C3(C)C)C(C)(C)C)S(C)(=O)=O | < 100 |
| C=CCNC(=O)C(=O)[C@@H]1CCCCCCCCC[C@H](NC(=O)N[C@H](CN(C)S(=O)(=O)c2cccs2)C(C)(C)C)C(=O)N2C[C@H]3[C@@H]([C@H]2C(=O)N1)C3(C)C | < 100 |
